Experimental data taken from patent publication US6413750B1, “(R)-specific alcohol dehydrogenases from lactobacillus with improved catalytic activity using an NAD+ substrate” (Forschungszentrum Jülich GmbH, priority 1998, dated 2002).

Experiment: Temperature optimum of enzyme activity
Assay type: biochemical, Lactobacillus brevis
Experimental: The optimal temperature was determined for reductive reactions at pH 7.0 with the two coenzymes NADH and NADPH to be 55° C. in both cases. The temperature stability was determined as residual activity after 25 h incubation at various temperatures. At 37° C., still 95% reactivity was obtained; at 42° C. still 34%.

For “mutant 1/1: L. brevis ADH mutant with exchanges A9G, R38L, K45M (SEQ ID NO 17) (SNRLDGKVGIITGGTLGIGLAIATKFVEEGAKVMITGLHSDVGEMAAKSV; OTHER INFORMATION: mutant 1/1)”, the temperature optimum (determined with NADH) was “about 40 °C” and the temperature optimum (measured with NADPH) was “at least 65 °C”.

With “mutant 2/2: L. brevis ADH mutant with exchanges A9G, R38L, H39L, K48M (SEQ ID NO 19) (SNRLDGKVGIITGGTLGIGLAIATKFVEEGAKVMITGLLSDVGEKAAMSV; OTHER INFORMATION: mutant 2/2)” the temperature optimum (pH 5.0, NADH) was 50 °C and the temperature optimum (pH 5.0, NADPH) was 42 °C.
